The target in this experiment is P. falciparum Rh5 (Rh5 – basigin interaction) (Plasmodium falciparum, UniProt Q8IFM5). In words: Rh5-basigin AlphaScreen assay. Format: binding. Particulars: highest concentration tested 50 μM. Background: Alpha assays give light when donor and acceptor beads are brought close together.

Protein sequences, listed by entry. Tags and fused reporters are not part of them. Residues count along the entry.
UniProt Q8IFM5, 24-526 limits assumed: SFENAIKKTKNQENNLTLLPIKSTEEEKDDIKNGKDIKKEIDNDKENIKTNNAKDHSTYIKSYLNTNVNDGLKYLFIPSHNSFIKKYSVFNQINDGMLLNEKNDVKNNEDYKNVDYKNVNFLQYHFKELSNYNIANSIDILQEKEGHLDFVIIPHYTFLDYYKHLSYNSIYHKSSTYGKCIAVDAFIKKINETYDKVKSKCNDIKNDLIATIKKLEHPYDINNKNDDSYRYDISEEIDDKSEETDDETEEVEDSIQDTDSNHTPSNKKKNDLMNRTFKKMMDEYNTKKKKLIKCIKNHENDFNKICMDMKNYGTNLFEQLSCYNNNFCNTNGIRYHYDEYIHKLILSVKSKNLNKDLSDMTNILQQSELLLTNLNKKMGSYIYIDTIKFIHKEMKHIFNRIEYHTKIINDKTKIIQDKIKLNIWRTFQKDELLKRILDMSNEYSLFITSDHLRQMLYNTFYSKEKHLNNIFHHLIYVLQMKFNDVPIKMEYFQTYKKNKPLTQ

Consider `CCCc1c(OCC(O)COc2ccc3c(=O)cc(C(=O)O)oc3c2CCC)ccc(C(C)=O)c1O` (stereo not shown) [FPL 55712, reference compound], for which the “Rh5 inhibitory activity in the AlphaScreen assay” value is given as “possess inhibitory activity”.

The values above are taken from publication PMC7645381, “Development and application of a high-throughput screening assay for identification of small molecule inhibitors of the P. falciparum reticulocyte binding-like homologue 5 protein” (International Journal for Parasitology: Drugs and Drug …, 2020).
